# Measurements: patent US20250332276A1, “Inhibitors of Molluscum Contagiosum Infection and Methods Using the Same” (priority 2022, published 2025)
# Read-outs that look alike come from different tables or passages of the source.
# System: mD4-VV surrogate virus
# Experiment: microbe, parasite or virus in culture
# Assay type: cell-based, vaccinia virus (VV)
# Settings: for EC50: Orthopoxvirus vaccinia
# [1] = read-out: EC50 (μM), antiviral mD4/VV activity
Compound,EC50 [1] [µM],"EC50 (read-out: EC50, infection of the surrogate virus mD4-VV) [µM]",fold greater potency (EC50) than compound 7269 (mD4-VV surrogate virus infection) [fold]
"CCC(C(=O)Nc1sc(C(=O)NCCNC(=O)CNC(=O)OC(C)(C)C)c(C)c1C(=O)OC)c1ccc(F)cc1 (centres unmarked) [Compound 1, Methyl 5-((2(2-((tert-butoxycarbonyl)amino)acetamido)ethyl)carbamoyl)-2-(2-(4-fluorophenyl)butanamido)-4-methylthiophene-3-carboxylate]",29.5,,
"CCC(C(=O)Nc1sc(C(=O)NCCNC(=O)[C@@H](N)C(C)C)c(C)c1C(=O)OC)c1ccc(F)cc1 (stereo partly drawn) [Compound 4, Methyl 5-((2-((S)-2-amino-3-methylbutanamido)ethyl)carbamoyl)-2-(2-(4-fluorophenyl)butanamido)-4-methylthiophene-3-carboxylate]",22.5,,
"CCC(C(=O)Nc1sc(C(=O)NCCNC(=O)[C@@H](NC(=O)[C@@H](NC(=O)OC(C)(C)C)C(C)C)C(C)C)c(C)c1C(=O)OC)c1ccc(F)cc1 (stereo partly drawn) [Compound 5, Methyl 5-(((6S,9S)-6,9-diisopropyl-2,2-dimethyl-4,7,10-trioxo-3-oxa-5,8,11-triazatridecan-13-yl)carbamoyl)-2-(2-(4-fluorophenyl)butanamido)-4-methylthiophene-3-carboxylate]",16.9,,
"CCC(C(=O)Nc1sc(C(=O)NCCNC(=O)[C@@H](NC(=O)[C@@H](N)C(C)C)C(C)C)c(C)c1C(=O)OC)c1ccc(F)cc1 (stereo partly drawn) [Compound 7, Methyl 5-((2-((S)-2-((S)-2-amino-3-methylbutanamido)-3-methylbutanamido)ethyl)carbamoyl)-2-(2-(4-fluorophenyl)butanamido)-4-methylthiophene-3-carboxylate]",23.2,,
"CCC(C(=O)Nc1sc(C(=O)NCCNC(=O)[C@@H](NC(=O)[C@@H](NC(=O)[C@@H](N)C(C)C)C(C)C)C(C)C)c(C)c1C(=O)OC)c1ccc(F)cc1 (stereo partly drawn) [Compound 9, Methyl 5-((2-((S)-2-((S)-2-((S)-2-amino-3-methylbutanamido)-3-methylbutanamido)-3-methylbutanamido)ethyl)carbamoyl)-2-(2-(4-fluorophenyl)butanamido)-4-methylthiophene-3-carboxylate]",2.1,2.1,6.3
"CCC(C(=O)Nc1sc(C(=O)NCCNC(=O)[C@@H](N)CC(C)C)c(C)c1C(=O)OC)c1ccc(F)cc1 (stereo partly drawn) [Compound 15, Methyl 5-((2-((S)-2-amino-4-methylpentanamido)ethyl)carbamoyl)-2-(2-(4-fluorophenyl)butanamido)-4-methylthiophene-3-carboxylate]",28.1,,
"CCC(C(=O)Nc1sc(C(=O)NCCNC(=O)[C@H](N)C(C)C)c(C)c1C(=O)OC)c1ccc(F)cc1 (stereo partly drawn) [Compound 18, Methyl 5-((2-((R)-2-amino-3-methylbutanamido)ethyl)carbamoyl)-2-(2-(4-fluorophenyl)butanamido)-4-methylthiophene-3-carboxylate]",14.1,,
"CCC(C(=O)Nc1sc(C(=O)NCCNC(=O)[C@H](NC(=O)[C@H](N)C(C)C)C(C)C)c(C)c1C(=O)OC)c1ccc(F)cc1 (stereo partly drawn) [Compound 19, Methyl 5-((2-((R)-2-((R)-2-amino-3-methylbutanamido)-3-methylbutanamido)ethyl)carbamoyl)-2-(2-(4-fluorophenyl)butanamido)-4-methylthiophene-3-carboxylate]",~10,,
"CCC(C(=O)Nc1sc(C(=O)NCCNC(=O)[C@H](NC(=O)[C@H](NC(=O)[C@H](N)C(C)C)C(C)C)C(C)C)c(C)c1C(=O)OC)c1ccc(F)cc1 (stereo partly drawn) [Compound 20, Methyl 5-((2-((R)-2-((R)-2-((R)-2-amino-3-methylbutanamido)-3-methylbutanamido)-3-methylbutanamido)ethyl)carbamoyl)-2-(2-(4-fluorophenyl)butanamido)-4-methylthiophene-3-carboxylate]",11.8,,
